Assays:
[1] = system: C. albicans cells; experiment: photosensitizer uptake by fluorescence spectrofluorimetry; format: cell-based; settings: for uptake of photosensitizer, PS: PS alone, 10^8 CFU/ml, PDI concentrations; for uptake of photosensitizer, +A16 (1 hr): with 4 μg/ml A16, 1 hr; for uptake of photosensitizer, +A16 (24 hrs): with 4 μg/ml A16, 24 hrs
Protocol: In order to confirm that the increase in phototoxicity observed by combining the different PS with A16 is actually due to an increase of cellular uptake of the PS by the cells and to document that the antifungal efficacy of saponins against C. albicans is associated with increased permeability, the amount of dye within the cell was measured by fluorescence spectrofluorimetry.
Cell suspensions (10^8 cells/mL) were incubated in the dark as above using the same concentrations as for the PDI assays measured as μM PS equivalent (final concentration in incubation medium). Incubations were carried out in triplicate. Cell suspensions were centrifuged (12000 rpm, 1 min) and washed twice in 1 mL sterile PBS. The cell pellet was dissolved in 1.5 mL 0.1 M NaOH/1% SDS for 24 h to yield a homogenous solution. Uptake was determined by measurement of fluorescence in black 96-well flat-bottom plates (Costar) in a final volume of 200 μL using a Spectramax Gemini spectrofluorimeter (Molecular Devices) at 400 nmex/580-700 nmem for ce6, PEI-ce6 and 552 nmex/555-620 nmem for RB. Uptake values were obtained as previously described (Tegos et al., Antimicrob Agents Chemother, 50:196-203(2006)).
The cellular uptake of dye can be expressed as molecules per cell by correlation of the extracted PS concentration with the number of C. albicans cells present.

[2] = system: C. albicans cells; experiment: confocal laser scanning microscopy of ce6 internalization; format: cell-based

`O=C1OC2(c3cc(I)c(O)c(I)c3Oc3c2cc(I)c(O)c3I)c2c(Cl)c(Cl)c(Cl)c(Cl)c21` [RB, Rose Bengal] was tested, and the “uptake of photosensitizer, PS” value [1] was 3.8 ± 0.6 molecules/cell, the “uptake of photosensitizer, +A16 (1 hr)” value [1] was 4.55 ± 0.5 molecules/cell and the “uptake of photosensitizer, +A16 (24 hrs)” value [1] was 9.12 ± 0.22 molecules/cell.
With `C=Cc1c(C)c2cc3nc(c(CC(=O)O)c4[nH]c(cc5nc(cc1[nH]2)C(C)=C5CC)c(C)c4C(=O)O)[C@@H](CCC(=O)O)[C@@H]3C` [ce6, chlorin(e6)] the “uptake of photosensitizer, PS” value [1] was 0.81 ± 0.06 molecules/cell, the “uptake of photosensitizer, +A16 (1 hr)” value [1] was 3.1 ± 0.25 molecules/cell and the “uptake of photosensitizer, +A16 (24 hrs)” value [1] was 9.1 ± 0.15 molecules/cell. The “internalization of ce6 into C. albicans cells” value (shortened to “internalization”) ([2]; ce6 alone, one hour incubation) was “no apparent internalization”, the “internalization” value ([2]; ce6 and A16, 24 hour incubation) was “dramatic increase in the concentration of ce6 inside the fungal cells” and the “internalization” value ([2]; ce6 and A16 together, one hour) was “internalization of ce6 is visible”.
